{
  "source": "paper PMC8099913",
  "about": "“FoldAffinity: binding affinities from nDSF experiments” (Scientific Reports, 2021)",
  "origin": "cited, not measured here",
  "tested_on": "pknG",
  "conditions": "read-out: reported IC50; ref 1 (supplement); cited from earlier work",
  "data": [
    {"smiles": "NC(=O)c1c(NC(=O)C2CC2)sc2c1CCCC2", "values": [
      {"measurement": "IC50", "result": 390, "unit": "nM"}
    ]}
  ]
}
